A mixed list of measured activities; the numbers were collected in NIAID ChemDB.

Common to all: tests in culture; species: Candida parapsilosis; read-out: MIC80

A number after MIC or MFC names an inhibition level or a share of isolates. Rows are shuffled and stem from different studies. Blank or dashed fields: not listed here.

{"compound": "CCCCN(Cc1cn(Cc2ccc(F)cc2)nn1)CC(O)(Cn1cncn1)c1ccc(F)cc1F", "value": "0.25 µg/mL"}
{"compound": "CCC(C)/C=C1\\SC(=O)N(CC(O)(Cn2nccn2)c2ccc(F)cc2F)C1=O", "strain or isolate": "CNCYP51", "value": "2.46 µg/mL"}
{"compound": "Cc1cc(C)cc(NC(=O)CN(C)CC(O)(Cn2cncn2)c2ccc(F)cc2F)c1", "value": "4 µg/mL"}
{"compound": "CCCCN(Cc1cn(Cc2cccc(F)c2)nn1)CC(O)(Cn1cncn1)c1ccc(F)cc1F", "value": "0.25 µg/mL"}
{"compound": "NN(Cc1ccccc1)CC(O)(Cn1cncn1)c1ccc(F)cc1F", "strain or isolate": "ATCC 21019", "value": "0.125 µg/mL"}
{"compound": "CCCCN(Cc1cn(Cc2ccccc2F)nn1)CC(O)(Cn1cncn1)c1ccc(F)cc1F", "value": "2 µg/mL"}
{"compound": "O=C1S/C(=C\\c2ccco2)C(=O)N1CC(O)(Cn1nccn1)c1ccc(F)cc1F", "strain or isolate": "CNCYP51", "value": "1.16 µg/mL"}
{"compound": "Cc1ccc(NC(=O)CN(C)CC(O)(Cn2cncn2)c2ccc(F)cc2F)cc1C", "value": "4 µg/mL"}
{"compound": "COc1ccc(/C=C2\\SC(=O)N(CC(O)(Cn3nccn3)c3ccc(F)cc3F)C2=O)cc1", "strain or isolate": "CNCYP51", "value": "4.23 µg/mL"}
{"compound": "CN(CC(=O)Nc1ccc(Br)cc1)CC(O)(Cn1cncn1)c1ccc(F)cc1F", "value": "4 µg/mL"}
{"compound": "CCCCN(Cc1cn(Cc2ccc([N+](=O)[O-])cc2)nn1)CC(O)(Cn1cncn1)c1ccc(F)cc1F", "value": "4 µg/mL"}
{"compound": "O=C1S/C(=C\\c2cccnc2)C(=O)N1CC(O)(Cn1nccn1)c1ccc(F)cc1F", "strain or isolate": "CNCYP51", "value": "1.13 µg/mL"}
{"compound": "CN(CC(=O)Nc1ccccc1[N+](=O)[O-])CC(O)(Cn1cncn1)c1ccc(F)cc1F", "value": "16 µg/mL"}
{"compound": "CCCCN(Cc1cn(Cc2ccc(Br)cc2)nn1)CC(O)(Cn1cncn1)c1ccc(F)cc1F", "value": "8 µg/mL"}
{"compound": "OC(Cn1cncn1)(Cn1cncn1)c1ccc(F)cc1F", "strain or isolate": "CNCYP51", "value": "1.16 µg/mL"}

The last 2 rows once more:

compound	strain or isolate	value
CCCCN(Cc1cn(Cc2ccc(Br)cc2)nn1)CC(O)(Cn1cncn1)c1ccc(F)cc1F	-	8 µg/mL
OC(Cn1cncn1)(Cn1cncn1)c1ccc(F)cc1F	CNCYP51	1.16 µg/mL